## Potato spindle tuber viroid, loop 6: variant abundance in plants

Values reported by Wu et al. 2024 (doi:10.1371/journal.ppat.1012142).

PSTVd intermediate strain, loop 6: wild type UGACCGCGAG, pool pattern UNNNCGNNNG; upper and lower strand joined, each 5' to 3', the first 5 letters being the upper strand, closing pairs included.

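Three N. benthamiana plants were inoculated with the whole mutant pool. Progeny were sequenced from the inoculated region (day 5), the margin of the inoculated leaf (day 10) and systemic leaves (day 12).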

Numbers give reads per thousand; 0 = not seen among the reads, higher = more abundant. Each value is the mean of three plants. "Pool" is the share in the plasmid pool used as inoculum, on the same scale. The inoculated region was read from the minus strand, the other sites from the plus strand.

UACGCGUUUG (pool 0.301) read inoculated region 0.0766; leaf margin 0; systemic leaves 0. UCCACGCGGG (pool 0.196) gave inoculated region 0.0654; leaf margin 0.0169; systemic leaves 0. With UUUCCGCUUG (pool 0.301) the assay gave inoculated region 0.114; leaf margin 0.0309; systemic leaves 0. With UUGGCGAAGG (pool 0.183) the assay gave inoculated region 0.109; leaf margin 0; systemic leaves 0. UUAUCGGUGG (pool 0.157) gave inoculated region 0.100; leaf margin 0.00773; systemic leaves 0.

UUCACGGCCG (pool 0.261) gave inoculated region 0.568; leaf margin 0.0931; systemic leaves 0. With UGCGCGCAUG (pool 0.131) the assay gave inoculated region 0.0717; leaf margin 0; systemic leaves 0. For UCUACGAAUG (pool 0.222) the result was inoculated region 0.107; leaf margin 0.0353; systemic leaves 0. With UGCACGAUUG (pool 0.327) the assay gave inoculated region 0.0540; leaf margin 0.00920; systemic leaves 0. UGCGCGACUG (pool 0.196) gave inoculated region 0.107; leaf margin 0.00773; systemic leaves 0.

With UUCUCGGAAU (pool 0.0261) the assay gave inoculated region 0; leaf margin 0; systemic leaves 0. UUUGCGAAUG (pool 0.222) read inoculated region 0.0768; leaf margin 0.0184; systemic leaves 0. With UCGGCGAUUG (pool 0.497) the assay gave inoculated region 0.0480; leaf margin 0; systemic leaves 0. UUAACCGGAG (pool 0.0131) read inoculated region 3.65; leaf margin 1.05; systemic leaves 0.429. With UCCUCGCAUG (pool 0.105) the assay gave inoculated region 0.0835; leaf margin 0.0169; systemic leaves 0.

UCAGCGGCAG (pool 0.170) read inoculated region 0.0765; leaf margin 0; systemic leaves 0. UGCGCGUCCG (pool 0.131) read inoculated region 0.0659; leaf margin 0; systemic leaves 0. For UCCCCUGGCC (pool 0.0131) the result was inoculated region 0; leaf margin 0; systemic leaves 0. With UUCCCGCCGG (pool 0.209) the assay gave inoculated region 0.0838; leaf margin 0; systemic leaves 0. With UGGGCGGGCG (pool 0.144) the assay gave inoculated region 0.0414; leaf margin 0.00773; systemic leaves 0.

For UCUGCGAGUG (pool 0.157) the result was inoculated region 0.0898; leaf margin 0.0169; systemic leaves 0. With UGUUCGGCUG (pool 0.340) the assay gave inoculated region 0.628; leaf margin 0.0800; systemic leaves 0. With UUAGCGUAGG (pool 0.314) the assay gave inoculated region 0.0604; leaf margin 0.00920; systemic leaves 0. With UAGACGCUUG (pool 0.209) the assay gave inoculated region 0.119; leaf margin 0.0247; systemic leaves 0. For UCGUCGCUUG (pool 0.144) the result was inoculated region 0.0958; leaf margin 0.0247; systemic leaves 0.

UCCACGAAGG (pool 0.0784) read inoculated region 0.0773; leaf margin 0.00920; systemic leaves 0. For UAUCCGGGCG (pool 0.196) the result was inoculated region 0.130; leaf margin 0; systemic leaves 0. With UAGUCGAAUG (pool 0.340) the assay gave inoculated region 0.125; leaf margin 0; systemic leaves 0.

The authors trace changes outside the varied positions to PCR and sequencing errors or to mutation in the plant; presence does not show that a variant is infectious alone. Wild type was 20.7 per thousand in the pool and the most common sequence in every sample (inoculated region 195, 198, 203; leaf margin 629, 591, 734; systemic leaves 942, 870, 868). Samples held 36,220 to 57,551 reads, so the smallest values rest on one or two reads.